Laboratory results as given in patent publication US20220089695A1.

Target: SARS-CoV-2 Spike (S) protein, recombinant, construct not stated at the place (SARS-CoV-2), P0DTC2
Settings: remark: other sources report otherwise

| Binder | blocking of S protein binding (heat-map cell) [%] |
| --- | --- |
| CLEC10A-His, Q8IUN9 (receptor) soluble receptor: QNSKFQRDLVTLRTDFSNFTSNTVAEIQALTSQGSSLEETIASLKAEVEGFKQERQAGVSELQEHTTQKAHLGHCPHCPSVCVPVHSEMLLRVQQLVQDLKKLTCQVATLNNNASTEGTCCPVNWVEHQDSCYWFSHSGMSWAEAEKYCQLKNAHLVVINSREEQNFVQKYLGSAYTWMGLSDPEGAWKWVDGTDYATGFQNWKPGQPDDWQGHGLGGGEDCAHFHPDGRWNDDVCQRPYHWVCEAGLGQTSQESH | -32 |
| Recombinant DC-SIGN (CD209) with human Fc tag, Q9NNX6 59-404 (Fc fusion) QVSKVPSSISQEQSRQDAIYQNLTQLKAAVGELSEKSKLQEIYQELTQLKAAVGELPEKSKLQEIYQELTRLKAAVGELPEKSKLQEIYQELTWLKAAVGELPEKSKMQEIYQELTRLKAAVGELPEKSKQQEIYQELTRLKAAVGELPEKSKQQEIYQELTRLKAAVGELPEKSKQQEIYQELTQLKAAVERLCHPCPWEWTFFQGNCYFMSNSQRNWHDSITACKEVGAQLVVIKSAEEQNFLQLQSSRSNRFTWMGLSDLNQEGTWQWVDGSPLLPSFKQYWNRGEPNNVGEEDCAEFSGNGWNDDKCNLAKFWICKKSAASCSRDEEQFLSPAPATPNPPPA | 70.1 |
